{"source": "patent US11413279B2", "about": "“Methods and compositions for the antiviral use of synthetic lysine analogs and mimetics” (priority 2017, dated 2022)", "key": {"[1]": {"system": "Human Immunodeficiency Virus Type 1 (HIV-1)", "conditions": "high virus inocula; for Output Viral Titer (Log10TCID50) / Titer (Log10TCID50/mL) / Reduction (%): contact time 48 ± 8 hours"}, "[2]": {"system": "Herpes Simplex Virus Type 1 (HSV-1)", "conditions": "tranexamic acid 2.0% (w/v); high virus inocula; vs input virus control average 6.46"}, "[3]": {"system": "Herpes Simplex Virus Type 2 (HSV-2)"}}, "note": "Several values for one entry are separate records, joined by “and”; a condition that tells them apart may be missing. Equal values may be shown once. Read-outs that look alike come from different tables or passages of the source.", "data": [{"smiles": "NC[C@H]1CC[C@H](C(=O)O)CC1", "note": "[Tranexamic Acid, tranexamic acid]", "values": [{"measurement": "Output Viral Titer (Log10TCID50)", "setting": "[1]; tranexamic acid 2.0% (w/v)", "result": "5.83 Log10TCID50 and 6.01 Log10TCID50"}, {"measurement": "Titer (Log10TCID50/mL)", "setting": "[1]; tranexamic acid 2.0% (w/v)", "result": "5.83 ± 0.00 Log10TCID50/mL and 6.01 ± 0.09 Log10TCID50/mL and 6.01 ± 0.11 Log10TCID50/mL"}, {"measurement": "Reduction (%)", "setting": "[1]; tranexamic acid 2.0% (w/v), listed as tranexamic acid", "result": 41.1, "unit": "%"}, {"measurement": "Output Viral Titer (Log10TCID50)", "setting": "[1]; tranexamic acid 3.0% (w/v)", "result": "5.83 Log10TCID50 and 5.71 Log10TCID50 and 6.01 Log10TCID50"}, {"measurement": "Reduction (%)", "setting": "[1]; tranexamic acid 3.0% (w/v)", "result": 55.3, "unit": "%"}, {"measurement": "Titer (Log10TCID50/mL)", "setting": "[1]; tranexamic acid 3.0% (w/v)", "result": "5.83 ± 0.00 Log10TCID50/mL and 5.71 ± 0.10 Log10TCID50/mL and 6.01 ± 0.09 Log10TCID50/mL"}, {"measurement": "Reduction (%)", "setting": "[1]; tranexamic acid 4.0% (w/v)", "result": "94.2% and 95.6% and 97.1%"}, {"measurement": "Log10 Reduction", "setting": "[1]; tranexamic acid 4.0% (w/v), vs input virus control average 6.06", "result": "1.24 Log10 and 1.36 Log10 and 1.54 Log10"}, {"measurement": "Log10 Reduction", "setting": "[2]", "result": "0.75 Log10 and 1.04 Log10"}, {"measurement": "Log10 Reduction", "setting": "[3]; tranexamic acid 0.5% (w/v), low virus inocula, vs input virus control average 6.22", "result": "0.68 Log10 and 0.45 Log10 and 0.51 Log10"}, {"measurement": "Log10 Reduction", "setting": "[3]; tranexamic acid 1.0% (w/v), high virus inocula, vs input virus control average 7.83", "result": "0.21 Log10 and 0.39 Log10 and 0.45 Log10"}, {"measurement": "Log10 Reduction", "setting": "[3]; tranexamic acid 1.0% (w/v), low virus inocula, vs input virus control average 6.22", "result": "0.62 Log10 and 0.39 Log10 and 0.33 Log10"}]}]}
